Measured values from several laboratories, pooled; numbers as filed in NIAID ChemDB.

Common to all: toxicity to cultured cells; cells: C8166; method: MTT; endpoint: CC50

CCn is the concentration with n% toxicity to the cells. Neighbouring rows are from separate reports.

| smiles | result |
|---|---|
| CCC(=O)c1cn(S(=O)(=O)c2ccc(CC)cc2)c2cc(C)ccc12 | 66.6 µg/mL |
| COc1cc([C@@H]2c3cc(OC)c(OC)cc3C[C@@H](C)[C@H]2C)ccc1O | 30 µM |
| CC1=CC[C@@H]([C@@H](C)[C@H]2CC[C@@]3(C)C4=C(C(=O)C[C@]23C)[C@H]2O[C@]23C=CC(=O)OC(C)(C)[C@@H]3CC4)OC1=O | 8.77 µg/mL |
| CC(C)c1c(Cc2ccccc2)nc(SCC(=O)c2cccs2)[nH]c1=O | 194 µM |
| CN(Cc1nc2ccccc2[nH]1)Cc1ncccc1Br | >10 µM |
| C=C1CC[C@H]2[C@@](C)(CC/C(=N\O)[C@@]2(C)CO)[C@@H]1/C=C/C1=CCOC1=O | >579 µM |
| CCC(=O)c1cn(S(=O)(=O)c2ccc(CC)cc2)c2ccc(C#N)cc12 | 142.8 µg/mL |
| O=C(O)[C@H]1O[C@@H](Oc2cc3oc(-c4ccc(O)cc4)cc(=O)c3c(O)c2O)[C@H](O)[C@@H](O)[C@@H]1O | 945 µM |
| COc1cc2c(c(OC)c1O)-c1c(cc(O)c(OC)c1OC)C[C@@H](C)[C@@H](C)C2 | >200 µg/mL |
| COc1cc([C@@H]2c3cc4c(cc3[C@H](O)[C@H]3COC(=O)[C@H]23)OCO4)cc(OC)c1OC | 0.15 µM |
| N#Cc1ccc2[nH]cc(C=O)c2c1 | 466 µM |
| CCc1cc(-c2ccc(C)o2)n(-c2ccc3c(c2)nc(-c2ccc(C(N)=O)cc2)n3Cc2ccc(=O)[nH]c2)n1 | >39 µM |
| COC(=O)C[C@@H](OC1=C(C)C(=O)C(C)(C)C1=O)c1ccccc1 | >200 µM |
| CCc1cc(-c2ccc(C)o2)n(-c2ccc3c(c2)nc(-c2ccc(C(N)=O)cc2)n3Cc2ccc(OC)nc2)n1 | 13 µM |
| CCc1c(Cc2ccccc2)nc(SCC(=O)c2ccccc2)[nH]c1=O | >549 µM |
| Cc1ccc(S(=O)(=O)n2cc(C=O)c3cc(C#N)ccc32)cc1 | 195 µM |
| C=C(C)[C@@]12OC3(C)O[C@@H]1[C@@H]1[C@H](OC(=O)c4ccccc4)C4(C)O[C@@]5([C@@H]4OC(=O)c4ccccc4)[C@@H](O)[C@@H](C)C[C@H]5[C@@]1(O)[C@H](C)[C@@H]2O3 | >200 µg/mL |
| CCC(=O)c1cn(S(=O)(=O)c2ccc(C)cc2)c2ccc(C#N)cc12 | >200 µg/mL |
| Cc1c(Cc2ccccc2)nc(SCC(=O)c2ccccc2)[nH]c1=O | 222 µM |
| CN1CCN(c2ccnc3nc(CN(C)Cc4ccccn4)[nH]c23)CC1 | >10 µM |
| Cc1cn([C@H]2C[C@H](N=[N+]=[N-])[C@@H](CO)O2)c(=O)[nH]c1=O | >200 µg/mL |
| Cc1cccnc1CNCc1nc2nccc(N3CCN(C)CC3)c2[nH]1 | >10 µM |
| COc1ccc(C(=O)CSc2nc(Cc3ccccc3)c(C(C)C)c(=O)[nH]2)cc1 | >489 µM |
| CCc1cc(-c2ccc(C(F)(F)F)o2)n(-c2ccc3c(c2)nc(-c2cc(C(=O)N4CCCC4)ccc2O)n3Cc2ccc(=O)[nH]c2)n1 | 20 µM |
| N#Cc1ccc2c(c1)c(C=O)cn2S(=O)(=O)c1ccc(Cl)c([N+](=O)[O-])c1 | 27.4 µM |
| COc1ccc([C@]2(OC)O[C@@H](c3cc(OC)c(OC)c(OC)c3)[C@@]3(C)O[C@@]23C)cc1OC | 106 µg/mL |
| CN1CCN(c2ccnc3nc(CN(CCCCN)Cc4ncc[nH]4)[nH]c23)CC1 | >10 µM |
| Nc1ccn([C@@H]2CS[C@H](CO)O2)c(=O)n1 | >1000 µM |
| Cc1c(Cc2cccc3ccccc23)nc(SCC(=O)c2cccs2)[nH]c1=O | >492 µM |
| CCC(=O)c1cn(S(=O)(=O)c2cccc([N+](=O)[O-])c2)c2ccc(C#N)cc12 | >200 µg/mL |
| CCC(C)C(=O)OC[C@@H]1[C@H](Cc2ccc(O)c(OC)c2)CO[C@H]1c1ccc(O)c(OC)c1 | 660 µM |
| CC1=C(O[C@H](CC(=O)O)c2ccccc2)C(=O)C(C)(C)C1=O | >200 µM |
| C=C1CC[C@H]2[C@@](C)(CC/C(=N\OC(=O)c3ccc(Cl)cc3)[C@@]2(C)CO)[C@@H]1/C=C/C1=CCOC1=O | 34.7 µM |
| O=C(O)[C@H]1O[C@@H](Oc2cc3oc(-c4ccccc4)cc(=O)c3c(O)c2O)[C@H](O)[C@@H](O)[C@@H]1O | 102 µM |
| COc1ccc(S(=O)(=O)n2cc(C=O)c3ccccc32)cc1 | 43.48 µM |
| CN(Cc1ncccc1Br)Cc1nc2ccccc2n1C(=O)OC(C)(C)C | >10 µM |
| CCC(=O)c1cn(S(=O)(=O)c2ccc(Cl)cc2)c2ccccc12 | >200 µg/mL |
| CC(=O)N/C=C/c1ccccc1F | 341 µM |
| CN(Cc1nc2ccccc2[nH]1)Cc1ncccc1CCC(=O)NC1CC1 | >10 µM |
| C=C1CC[C@@H]2[C@](C)(CO)[C@H](O)CC[C@@]2(C)[C@@H]1C/C=C1/C(=O)OC[C@H]1O | 15.2 µM |
| Cc1ccc(S(=O)(=O)n2cc(C=O)c3ccc(C)cc32)cc1 | 152 µM |
| COc1cc2oc(=O)c3c(O)ccc(O)c3c2c(OC)c1OC | >200 µM |
| CCC(=O)c1cn(S(=O)(=O)c2ccc(OC)cc2)c2ccccc12 | 10 µg/mL |
| CCc1cc(-c2ccc(C(F)(F)F)o2)n(-c2ccc3c(c2)nc(-c2cc(C(=O)N4CCCC4)ccc2O)n3Cc2c[nH]c(=O)c(C)c2)n1 | 18 µM |
| Cc1c(Cc2cccc3ccccc23)nc(SCC(=O)c2ccco2)[nH]c1=O | >512 µM |
| C=C(C)[C@@]12OC3(C)O[C@@H]1[C@@H]1[C@H](OC(=O)c4ccccc4)C4(C)O[C@@]5([C@@H]4OC(=O)c4ccccc4)[C@@H](OC(C)=O)[C@@H](C)C[C@H]5[C@@]1(O)[C@H](C)[C@@H]2O3 | >200 µg/mL |
| CCC(=O)c1cn(S(=O)(=O)c2ccc(C)cc2)c2ccccc12 | 1.3 µg/mL |
| COc1ccc(C(=O)CSc2nc(Cc3ccccc3)c(C)c(=O)[nH]2)cc1 | >526 µM |
| CCc1cc(-c2ccc(C)o2)n(-c2ccc3c(c2)nc(-c2ccccc2O)n3Cc2ccc(OC)c(O)c2)n1 | >22 µM |
| CCc1c(Cc2cccc3ccccc23)nc(SCC(=O)c2cccs2)[nH]c1=O | 227 µM |
| COc1ccc(S(=O)(=O)n2cc(C=O)c3cc(C#N)ccc32)cc1 | 151 µM |
| C=C1CC[C@@H]2[C@](C)(CO)[C@H](O)CC[C@@]2(C)[C@@H]1CC(OC(=O)/C=C/c1cc2c(cc1[N+](=O)[O-])OCO2)C1CCOC1=O | 4.765 µM |
| CCc1cc(-c2ccc(C(F)(F)F)o2)n(-c2ccc3c(c2)nc(-c2cc(C(=O)N4CCCC4)ccc2O)n3Cc2cc(C)c(=O)n(C)c2)n1 | 21 µM |

Again, the opening 5 rows:

{"smiles": "CCC(=O)c1cn(S(=O)(=O)c2ccc(CC)cc2)c2cc(C)ccc12", "result": "66.6 µg/mL"}
{"smiles": "COc1cc([C@@H]2c3cc(OC)c(OC)cc3C[C@@H](C)[C@H]2C)ccc1O", "result": "30 µM"}
{"smiles": "CC1=CC[C@@H]([C@@H](C)[C@H]2CC[C@@]3(C)C4=C(C(=O)C[C@]23C)[C@H]2O[C@]23C=CC(=O)OC(C)(C)[C@@H]3CC4)OC1=O", "result": "8.77 µg/mL"}
{"smiles": "CC(C)c1c(Cc2ccccc2)nc(SCC(=O)c2cccs2)[nH]c1=O", "result": "194 µM"}
{"smiles": "CN(Cc1nc2ccccc2[nH]1)Cc1ncccc1Br", "result": ">10 µM"}